Pooled drug test results. Numbers come from NIAID ChemDB, via PubChem.

All rows: whole-cell or culture tests

Neighbouring rows are from separate reports. Inhibition is in % at the dose shown (toxicity tests: loss of growth or viability). A number after MIC or MFC names an inhibition level or a share of isolates. Blank or dashed fields: not listed here. Fold resistance has wild type as its base. ECn: concentration that inhibits the pathogen or its effect by n%.

| compound | cell line | organism | read-out | mutations | method | tested at | strain or isolate | value |
|---|---|---|---|---|---|---|---|---|
| CCCN1CCN(c2cc(=O)c3nc4c(oc3c2)c2c(=O)c3c(O)c(C)c5c(c34)=C(O)[C@@](C)(O/C=C/[C@H](OC)[C@@H](C)[C@@H](OC(C)=O)[C@H](C)[C@H](O)[C@H](C)[C@@H](O)[C@@H](C)/C=C/C=C(/C)C(=O)N2)O5)CC1 | - | Staphylococcus aureus | MIC50 | - | - | - | 16 strains (methicillin- quinolone-resistant) | 0.0039 µg/mL |
| NC(=O)c1ncn([C@@H]2O[C@H](CO)[C@@H](O)[C@H]2O)n1 | CV-1 | Measles virus | EC50 | - | neutral red | - | TN1994 | 10 µg/mL |
| CCOC(=O)Nc1cc2c(c(N)n1)N=C(c1ccc(OC)c(OC)c1)CO2 | RK-13 | Encephalitozoon intestinalis | inhibition | - | - | 1 µg/mL | - | 55% |
| C=CCc1ccc(O)c(-c2ccc(O)c(CC=C)c2)c1 | - | Candida albicans | MIC | - | broth dilution | - | TW 00313 | 64 µg/mL |
| CCO/N=C/c1ccc(OCCC2CCN(c3ccc(C)nn3)CC2)cc1 | KB | Rhinovirus | EC50 | - | neutral red | - | 6258-CV44 (ICAM-1 receptor group 64) | >4.588 µM |
| COc1ccc(C)c(NCc2cnc3nc(N)nc(N)c3c2C)c1 | RK-13 | Encephalitozoon intestinalis | inhibition | - | - | 1 µg/mL | - | 75.7% |
| CC[C@H]1OC(=O)[C@H](C)[C@@H](O[C@H]2C[C@@](C)(OC)[C@@H](O)[C@H](C)O2)[C@H](C)[C@@H](O[C@@H]2O[C@H](C)C[C@H](N(C)C)[C@H]2O)[C@](C)(OC)C[C@@H](C)C(=O)[C@H](C)[C@@H](O)[C@]1(C)O | - | Mycobacterium abscessus | MIC | - | broth dilution | - | V139 | 16 µg/mL |
| Cc1c(CN(C)c2cccc3c2CCCC3)cnc2nc(N)nc(N)c12 | RK-13 | Encephalitozoon intestinalis | inhibition | - | - | 1 µg/mL | - | 75.7% |
| C[C@@H]1CN(c2c(F)c(N)c3c(=O)c(C(=O)O)cn(C4CC4)c3c2F)C[C@H](C)N1 | - | Staphylococcus aureus | MIC50 | - | - | - | 24 strains (ofloxacin-susceptible) | 0.06 µg/mL |
| C[C@@H](c1nc(-c2ccc(C#N)cc2)cs1)[C@](O)(Cn1cnnc1)c1ccc(F)cc1F | - | Candida albicans | MIC | - | - | - | Isogenic isolate 3 MDR1 (25X) | 0.008 µg/mL |
| N[C@@H]1CN(c2c(F)cc3c(=O)c(C(=O)O)cn([C@@H]4C[C@@H]4F)c3c2Cl)CC12CC2 | - | Staphylococcus aureus | MIC50 | - | - | - | 24 strains (ofloxacin-susceptible) | 0.03 µg/mL |
| COc1cc(C[C@H](C)[C@H](C)Cc2ccc(O)c(O)c2)ccc1O | - | Candida albicans | MIC50 | - | broth dilution | - | CCC 125-2000 | 62.5 µg/mL |
| CO[C@H]1/C=C/O[C@@]2(C)Oc3c(C)c(O)c4c(O)c(c5c(c4c3C2=O)NC2(CCN(CC(C)C)CC2)N=5)=NC(=O)/C(C)=C\C=C\[C@H](C)[C@H](O)[C@@H](C)[C@@H](O)[C@@H](C)[C@H](OC(C)=O)[C@@H]1C | - | Staphylococcus aureus | MIC | - | - | - | Terajima | 0.016 µg/mL |
| CCCSc1ccc2nc(NC(=O)OC)[nH]c2c1 | MRC-5 fibroblasts | Encephalitozoon cuniculi | inhibition | - | cytopathic effect | 0.01 µg/mL | - | 100% |
| CN(C)c1ccc(O)c2c1C[C@H]1C[C@H]3[C@H](N(C)C)C(=O)C(C(N)=O)=C(O)[C@@]3(O)C(=O)C1=C2O | - | Staphylococcus aureus | MIC50 | - | - | - | 25 strains (methicillin-susceptible) | 0.12 µg/mL |
| CCN(CC)CCCC(C)Nc1ccnc2cc(Cl)ccc12 | MRC-5 fibroblasts | Encephalitozoon cuniculi | inhibition | - | cytopathic effect | 10 µg/mL | - | 29% |
| NC1CCN(c2c(F)cc3c(=O)c(C(=O)O)cn(C4CC4)c3c2Cl)C1 | - | Staphylococcus aureus | MIC90 | - | - | - | 10 strains (oxacillin-resistant) | 1 µg/mL |
| COc1cc2oc(=O)ccc2cc1CC(O)C(C)(C)O | - | Klebsiella pneumoniae | MIC | - | - | - | ESBL-75799 | 125 µg/mL |
| CC[C@H]1OC(=O)[C@H](C)[C@@H](O[C@H]2C[C@@](C)(OC)[C@@H](O)[C@H](C)O2)[C@H](C)[C@@H](O[C@@H]2O[C@H](C)C[C@H](N(C)C)[C@H]2O)[C@](C)(O)C[C@@H](C)CN(C)[C@H](C)[C@@H](O)[C@]1(C)O | MRC-5 fibroblasts | Encephalitozoon cuniculi | inhibition | - | cytopathic effect | 100 µg/mL | - | 28% |
| CN(C)c1cc(NC(=O)CNC(C)(C)C)c(O)c2c1C[C@H]1C[C@H]3[C@H](N(C)C)C(=O)C(C(N)=O)=C(O)[C@@]3(O)C(=O)C1=C2O | - | Mycobacterium massiliense | MIC | - | broth dilution | - | V30 | 0.125 µg/mL |
| CC(C)=CCN1c2cc(Cl)cc3[nH]c(=S)n(c23)C[C@@H]1C | MT-4 | HIV-1 | EC95 | RT-L74V Y181C | - | - | - | >3 µM |
| COc1ccc(OC)c(NCc2cnc3nc(N)nc(N)c3c2C)c1 | RK-13 | Encephalitozoon intestinalis | inhibition | - | - | 0.01 µg/mL | - | 4.8% |
| CCc1nc(N)nc(N)c1-c1ccc(Cl)cc1 | MRC-5 fibroblasts | Encephalitozoon cuniculi | EC50 | - | cytopathic effect | - | - | >50 µg/mL |
| Nc1ccn([C@@H]2C[C@H](CO)[C@@H](O)[C@H]2O)c(=O)n1 | BALB/3T3 | Vesicular stomatitis virus | EC50 | - | cytopathic effect | - | - | 5 µg/mL |
| Cc1c(N2C[C@@H](F)[C@@H](C3(N)CC3)C2)c(F)c(N)c2c(=O)c(C(=O)O)cn([C@@H]3C[C@@H]3F)c12 | - | Staphylococcus aureus | MIC90 | - | - | - | 24 strains (ofloxacin-susceptible) | 0.008 µg/mL |
| Nc1ccc(S(=O)(=O)c2ccc(N)cc2)cc1 | - | Mycobacterium ulcerans | MBC | - | - | - | Isolate 8756 | 2 µg/mL |
| Nc1ncnc2c1ncn2[C@H]1C=C[C@H](O)[C@@H]1O | CV-1 | Measles virus | EC50 | - | neutral red | - | - | <0.1 µg/mL |
| Nc1nc2c(ncn2CCOCP(=O)(O)O)c(=O)[nH]1 | - | Measles virus | inhibition | - | virus yield | 0.3 µg/mL | Halonen | 90% |
| CN(C)[C@@H]1C(=O)C(C(N)=O)=C(O)[C@@]2(O)C(=O)C3=C(O)c4c(O)c(NC(=O)CNC(F)(F)F)cc(F)c4C[C@H]3C[C@@H]12 | - | Streptococcus pneumoniae | EC50 | - | agar diffusion | - | 160-tet | 1 µg/mL |
| Nc1ccn(C[C@@H](CO)OCP(=O)(O)O)c(=O)n1 | - | Adenovirus | EC90 | - | virus yield | - | Chicago (type 1) | 20 µg/mL |
| CC(=O)NC[C@H]1CN(c2ccc(N3CCOCC3)c(F)c2)C(=O)O1 | - | Staphylococcus aureus | MIC50 | - | - | - | 25 strains (ofloxacin-resistant) | 2 µg/mL |
| C#CC[C@@H](C(=O)N[C@H](/C=C/C(=O)OCC)C[C@@H]1CCNC1=O)n1cccc(NC(=O)c2cc(C)on2)c1=O | H1-HELA | Rhinovirus | inhibition | - | cytopathic effect / XTT | 0.035 µM | Serotype 89 | 90% |
| C[C@H]1COc2c(N3CCN(C)CC3)c(F)cc3c(=O)c(C(=O)O)cn1c23 | - | Haemophilus influenzae | MIC90 | - | - | - | 38 strains (ampicillin-susceptible) | 0.015 µg/mL |
| NC12CC3CC(CC(C3)C1)C2 | MDCK | Influenza A virus | EC50 | - | plaque count | - | H3N2 AICHI/2/68 | 0.63 µg/mL |
| COc1ccc(OC)c(Cc2cnc3nc(N)nc(N)c3c2C)c1 | MRC-5 fibroblasts | Encephalitozoon cuniculi | EC50 | - | cytopathic effect | - | - | >10 µg/mL |
| COc1cc(Cc2cnc(N)nc2N)cc(OC)c1OC | - | Mycobacterium ulcerans | MIC | - | - | - | Isolate 5143 | >16 µg/mL |
| NC(=O)c1ncn([C@@H]2O[C@H](CO)[C@@H](O)[C@H]2O)n1 | HEP-2 | Respiratory syncytial virus | EC50 | - | plaque count | - | LONG | 11.1 µM |
| CC1(C)[C@@H](O[C@H]2O[C@H](C(=O)O)[C@@H](O)[C@H](O)[C@H]2O[C@@H]2O[C@H](C(=O)O)[C@@H](O)[C@H](O)[C@H]2O)CC[C@]2(C)[C@H]3C(=O)C=C4[C@@H]5C[C@@](C)(C(=O)O)CC[C@]5(C)CC[C@@]4(C)[C@]3(C)CC[C@@H]12 | VERO | Dengue virus | EC50 | - | cytopathic effect | - | Type 1 (Hawaii) | 450 µg/mL |
| Nc1ncnc2c1ncn2C[C@@H](CO)OCP(=O)(O)O | - | Adenovirus | EC90 | - | virus yield | - | 13306 (TYPE 8) | 1 µg/mL |
| CC(C)(CO)C(=O)SCCOP(=O)(NCc1ccccc1)OC[C@H]1O[C@@H](n2cnc3c(=O)[nH]c(N)nc32)[C@](C)(O)[C@@H]1O | Replicon cells | Hepatitis C virus | fold resistance | Y93C | replicon | - | GT1b | 0.73 |
| COC(=O)Nc1cc(N)c2c(c1)NC(=O)C(c1ccccc1)N2 | RK-13 | Encephalitozoon intestinalis | inhibition | - | - | 0.01 µg/mL | - | 4.2% |

The first 4 rows once more:

compound | cell line | organism | read-out | mutations | method | tested at | strain or isolate | value
CCCN1CCN(c2cc(=O)c3nc4c(oc3c2)c2c(=O)c3c(O)c(C)c5c(c34)=C(O)[C@@](C)(O/C=C/[C@H](OC)[C@@H](C)[C@@H](OC(C)=O)[C@H](C)[C@H](O)[C@H](C)[C@@H](O)[C@@H](C)/C=C/C=C(/C)C(=O)N2)O5)CC1 | - | Staphylococcus aureus | MIC50 | - | - | - | 16 strains (methicillin- quinolone-resistant) | 0.0039 µg/mL
NC(=O)c1ncn([C@@H]2O[C@H](CO)[C@@H](O)[C@H]2O)n1 | CV-1 | Measles virus | EC50 | - | neutral red | - | TN1994 | 10 µg/mL
CCOC(=O)Nc1cc2c(c(N)n1)N=C(c1ccc(OC)c(OC)c1)CO2 | RK-13 | Encephalitozoon intestinalis | inhibition | - | - | 1 µg/mL | - | 55%
C=CCc1ccc(O)c(-c2ccc(O)c(CC=C)c2)c1 | - | Candida albicans | MIC | - | broth dilution | - | TW 00313 | 64 µg/mL